Common to all, as to type: in vivo
In data set [1] the test system is duroc-landrace-yorkshire hybrid pigs. Put plainly: Influence of enrofloxacin base, sodium salt and hydrochloride on palatability of pig feed (Embodiment 2). The conditions noted are these: for Total feed intake: 10 pigs, free feed intake after 12 h fast; for Average feed intake: per pig, after 12 h fast, control 1.289 kg. Here is the method: Enrofloxacin base, enrofloxacin sodium and enrofloxacin hydrochloride were respectively added in feed in each group. All the test pigs were synchronously fasted for 12 h before testing. The test pigs in each group were respectively subjected to free feed intake of feed containing enrofloxacin in different forms after the 12 h fast. […] Feed consumption of different test groups was subjected to statistics and the influence of different forms of the enrofloxacin added in the feed on the feed intake of the pigs was evaluated. The pure feed which was not added with the enrofloxacin or the salt thereof was taken as control.

Data set [2] has the same test system. The data set is described as follows: Dose research of influence of enrofloxacin copper on palatability of pig feed (Embodiment 5). The conditions noted are these: for Average feed intake: after 12 h fast, control 1.358 ± 0.381 kg.
The test system is the same in data set [3]. The data set is described as follows: Influence of long-term (7 days) application of enrofloxacin zinc, copper and silver on feed intake of pigs (Embodiment 7). The following applies: 100 ppm in feed, 7 continuous days; for Total feed intake: 10 × 3 pigs, control 458.9 kg.
The test system is the same in data set [4]. Put plainly: Dose research of influence of enrofloxacin silver on palatability of pig feed (Embodiment 6). The following applies: after 12 h fast, control 1.385 ± 0.406 kg.
Data set [5] has the same test system. Put plainly: Dose research of influence of enrofloxacin zinc on palatability of pig feed (Embodiment 4). The following applies: after 12 h fast, control 1.324 ± 0.315 kg.
The mark [6] stands for this setting: 5 ppm in feed (calculated by enrofloxacin).
The mark [7] stands for this setting: 25 ppm in feed (calculated by enrofloxacin).
The mark [8] stands for this setting: 100 ppm in feed (calculated by enrofloxacin).

Structures can show the parent of a compound that is named as a salt.

For the compound `CCN1CCN(c2cc3c(cc2F)c(=O)c(C(=O)O)cn3C2CC2)CC1` [enrofloxacin base, enrofloxacin], the Total feed intake in data set [1] (setting [6]) is 6.81 kg; in data set [1] (setting [7]), 3.32 kg; in data set [1] (setting [8]), 0.86 kg. In addition, the Average feed intake in data set [1] (5 ppm in feed) was found to be 0.681 kg; in data set [1] (25 ppm in feed), 0.332 kg; in data set [1] (100 ppm in feed), 0.086 kg.
As to `CCN1CCN(c2cc3c(cc2F)c(=O)c(C(=O)[O-])cn3C2CC2)CC1.CCN1CCN(c2cc3c(cc2F)c(=O)c(C(=O)[O-])cn3C2CC2)CC1.[Cu+2]` [enrofloxacin copper], the Average feed intake in data set [2] (100 ppm in feed) is 1.355 ± 0.397^A kg; in data set [2] (250 ppm in feed) it was 1.369 ± 0.349^A kg; in data set [2] (500 ppm in feed) it was 1.352 ± 0.351^A kg. Besides, the “Feed intake compared with control group (in words)” value in data set [2] (different doses (100-500 ppm) in feed) is “no significant difference”. In addition, the Total feed intake in data set [3] is on record as 463.5 kg. Also, the “Average feed intake (average daily feed intake)” value in data set [3] (control […] ± 0.316 kg) is listed as 2.207 ± 0.333^A kg.
For the compound `CCN1CCN(c2cc3c(cc2F)c(=O)c(C(=O)O)cn3C2CC2)CC1` [enrofloxacin hydrochloride], the Total feed intake in data set [1] (5 ppm in feed (calculated by enrofloxacin), hydrochloride) is given as 6.51 kg; in data set [1] (25 ppm in feed (calculated by enrofloxacin), hydrochloride), 3.41 kg; in data set [1] (100 ppm in feed (calculated by enrofloxacin), hydrochloride), 0.81 kg. Moreover, the Average feed intake in data set [1] (5 ppm in feed, hydrochloride) turned out to be 0.651 kg; in data set [1] (25 ppm in feed, hydrochloride) it was 0.341 kg; in data set [1] (100 ppm in feed, hydrochloride), 0.081 kg.
As for `CCN1CCN(c2cc3c(cc2F)c(=O)c(C(=O)[O-])cn3C2CC2)CC1.[Ag+]` [enrofloxacin silver], the Average feed intake is reported as 1.380 ± 0.416^A kg in data set [4] (100 ppm in feed), 1.389 ± 0.447^A kg in data set [4] (250 ppm in feed) and 1.379 ± 0.388^A kg in data set [4] (500 ppm in feed). Also, the Total feed intake in data set [3] is recorded as 460.1 kg.
In the case of `CCN1CCN(c2cc3c(cc2F)c(=O)c(C(=O)O)cn3C2CC2)CC1` [enrofloxacin sodium], the Total feed intake in data set [1] (setting [6]) is 6.34 kg; in data set [1] (setting [7]), 3.47 kg; in data set [1] (setting [8]), 0.76 kg. Also, the Average feed intake in data set [1] (5 ppm in feed) came out at 0.634 kg; in data set [1] (25 ppm in feed), 0.347 kg; in data set [1] (100 ppm in feed), 0.076 kg.
With `CCN1CCN(c2cc3c(cc2F)c(=O)c(C(=O)[O-])cn3C2CC2)CC1.CCN1CCN(c2cc3c(cc2F)c(=O)c(C(=O)[O-])cn3C2CC2)CC1.[Zn+2]` [enrofloxacin zinc], the Average feed intake in data set [5] (100 ppm in feed) is given as 1.335 ± 0.342^A kg; in data set [5] (250 ppm in feed), 1.319 ± 0.297^A kg; in data set [5] (500 ppm in feed) it was 1.338 ± 0.259^A kg. The Total feed intake in data set [3] is recorded as 468.3 kg.
